Source: article PMC10132805

Biological target: endogenous clathrin (UniProt Q00610)

Substance: Nsp3 (EEEV) wt, full length, Flag-tagged F1774A; D1775A
- response (PLA signals/cell): 30
